Key:
[1] = biological target: T1, Gag-Pol polyprotein (Human immunodeficiency virus type 1 group M subtype B (isolate HXB2)(HIV-1), UniProt P04585); test: (§1) PHENOSENSE assay: The PhenoSense report form includes drug resistance information for all of the approved nucleoside reverse transcriptase inhibitors (NRTIs), nonnucleoside reverse transcriptase inhibitors (NNRTIs), and protease inhibitors (PIs).
[2] = biological target: T1, Gag-Pol polyprotein; test: as §1; remark: listed apart in the source
[3] = biological target: T1, Gag-Pol polyprotein; test: as §1; remark: listed apart in the source
[4] = biological target: T1, Gag-Pol polyprotein; test: as §1; remark: listed apart in the source
[5] = biological target: T1, Gag-Pol polyprotein; test: as §1; remark: listed apart in the source
[6] = biological target: T1, Gag-Pol polyprotein; test: as §1; remark: listed apart in the source

Row | SMILES | IC50 [1] | IC50 [2] | IC50 [3] | IC50 [4] | IC50 [5] | IC50 [6]
1 | CCCCCCCCCCCCCCCCOCCCOP(=O)(O)CO[C@H](C)Cn1cnc2c(N)ncnc21 [TENOFOVIR EXALIDEX] | 0.005 µM | 0.009 µM | – | – | – | –
2 | CC(C)OC(=O)OCOP(=O)(CO[C@H](C)Cn1cnc2c(N)ncnc21)OCOC(=O)OC(C)C | > 6.49 µM | > 6.47 µM | 1.04 µM | > 8.51 µM | 6.52 µM | 5.39 µM

Source: ChEMBL document CHEMBL5725298 (2017)
